Patent publication US6841566B2, “Viral polymerase inhibitors” (Boehringer Ingelheim, Ltd., priority 2001, dated 2005)

Amino acid sequences for entries named in this document (tags omitted). Chains listed by the source or under a name are the forms on record and can include a tag or linker. Residues count along the entry.
UniProt P26663, 2420-3010 with tags or gaps with the stated changes: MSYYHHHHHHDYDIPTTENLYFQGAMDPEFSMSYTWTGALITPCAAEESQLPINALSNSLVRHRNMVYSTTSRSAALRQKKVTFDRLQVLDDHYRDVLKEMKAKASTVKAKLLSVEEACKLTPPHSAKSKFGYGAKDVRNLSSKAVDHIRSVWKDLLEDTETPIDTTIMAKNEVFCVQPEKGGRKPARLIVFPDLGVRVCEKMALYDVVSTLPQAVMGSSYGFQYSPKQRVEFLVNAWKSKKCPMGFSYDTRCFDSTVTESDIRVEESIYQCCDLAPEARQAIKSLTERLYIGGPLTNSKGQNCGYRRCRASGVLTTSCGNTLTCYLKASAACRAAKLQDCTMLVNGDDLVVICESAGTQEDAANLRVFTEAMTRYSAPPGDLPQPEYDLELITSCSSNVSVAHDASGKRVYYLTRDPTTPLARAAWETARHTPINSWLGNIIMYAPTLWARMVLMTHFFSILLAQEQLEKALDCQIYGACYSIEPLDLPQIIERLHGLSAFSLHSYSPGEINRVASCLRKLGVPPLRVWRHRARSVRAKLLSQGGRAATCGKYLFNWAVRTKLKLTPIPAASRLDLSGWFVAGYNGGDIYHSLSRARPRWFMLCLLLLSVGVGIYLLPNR

How the values were obtained:
[1] = target: hepatitis C virus RNA dependant polymerase (NS5B) (Hepatitis C virus genotype 1b, UniProt P26663); conditions: HCV NS5B polymerase assay of Example 22
[2] = test system: Huh7 cells that stably maintain a subgenomic HCV replicon (S22.3 cell-line); test: Cell based HCV RNA replication assay (S22.3 replicon cells, real-time RT-PCR); conditions: 72 hours
Experimental: Huh7 cells that stably maintain a subgenomic HCV replicon were established as previously described (Lohman et al., 1999. Science 285: 110-113) and designated as the S22.3 cell-line. S22.3 cells were maintained in Dulbecco's Modified […] Medium (DMEM) supplemented with 10% FBS and 0.5 mg/mL neomycin (Standard Medium). During the assay, DMEM medium supplemented with 10% FBS, containing 0.5% DMSO and lacking neomycin was used (Assay Medium). 16 hours prior to compound addition, S22.3 cells are trypsinized and diluted to 100 000 cells/ml in Standard Medium. 100μL (10 000 cells) are distributed into each well of a 96-well plate. The plate was then incubated at 37° C. with 5% CO2 until the next day.
10 μL of test compound (in 100% DMSO) was added to 2 ml of Assay Medium for a final DMSO concentration of 0.5% and the solution was sonicated for 15 min and filtered through a […] Millipore Filter Unit. 900 μl was transferred into row A of a Polypropylene Deep-Well Titer Plate. Rows B to H, contain 400 μL aliquots of Assay Medium (containing 0.5% DMSO), and were used to prepare serial dilutions (1/2) by transferring 400 μl from row to row (no compound was included in row H).
Cell culture medium was aspirated from the 96-well plate containing the S22.3 cells. 175 μL of assay medium with the appropriate dilution of test compound was transferred from each well of the compound plate to the corresponding well of the cell culture plate (row H was used as the “No inhibition control”). The cell culture plate was incubated at 37° C. with 5% CO2 for 72 hours.
Following the 72 hour incubation period, the total cellular RNA was extracted from the S22.3 cells of the 96-well plate using the RNeasy 96 kit (Qiagen®, RNeasy Handbook. 1999.). Briefly, assay medium was completely removed from cells and 100 μL of RLT buffer (Qiagen®) containing 143 mM β-mercaptoethanol was added to each well of the 96-well cell-culture plate. The microplate was gently shaken for 20 sec. […]
RNA was quantified on the STORM® system (Molecular Dynamics®) using the RiboGreen® RNA Quantification Kit (Molecular Probes®). […]

How did the IC50 [1] turn out when CC(NC(=O)c1ccc2c(c1)nc(-c1ccoc1)n2C1CCCCC1)C(=O)Nc1ccc(OCC(=O)O)cc1 (stereo not drawn) was run?
The IC50 was 0.5 to 5 µM.

Which results are given for Cc1c(C(=O)N[C@H](C)C(=O)Nc2ccc(/C=C/C(=O)O)cc2)ccc2c1nc(-c1ccoc1)n2C1CCCCC1?
EC50 [2]: 5 to 50 µM; IC50 [1]: 0.5 to 5 µM

Which IC50 [1] does the source give for Cc1cc2c(cc1C(=O)N[C@H](C)C(=O)Nc1ccc(/C=C/C(=O)O)cc1)nc(-c1ccoc1)n2C1CCCCC1 here?
The IC50 was 0.5 to 5 µM.

How did the EC50 [2] turn out when C=CC1CC1(NC(=O)c1ccc2c(c1)nc(-c1ccoc1)n2C1CCCCC1)C(=O)Nc1ccc(/C=C/C(=O)O)cc1 (single isomer, unassigned) was run?
The EC50 was under 5 µM.

What about the IC50 [1] of the same compound?
The IC50 was under 0.5 µM.

Which results are given for C[C@@H](NC(=O)c1ccc2c(n1)nc(-c1ccoc1)n2C1CCCCC1)C(=O)Nc1ccc(/C=C/C(=O)O)cc1?
EC50 [2]: 5 to 50 µM; IC50 [1]: < 0.5 µM

Which IC50 [1] does the source give for Cc1nc(Nc2ccc(NC(=O)C3(NC(=O)c4ccc5c(c4)nc(-c4ccoc4)n5C4CCCCC4)CCCC3)cn2)sc1C(=O)O here?
Its IC50 is 0.5 to 5 µM.
